{"source": "PubChem BioAssay AID504761 (Drosophila RNAi Screening Center, 2011)", "assay": "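Insect host genes that dengue virus relies on to spread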 (primary screen)", "cells": "D.Mel-2 cells from Drosophila", "reagents": "long dsRNA against Drosophila genes", "treatment": "infection with dengue virus type 2; dose and infection time not stated", "measurement": "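Cells stained for dengue envelope protein and imaged; percent of infected cells per well on duplicate plates, ranked by infection, with stained nuclei counted for cell number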", "scale": "infection score: higher = more virus-infected cells; cell count: higher = more cells in the well", "call rule": "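Low infection ranks in the two replicates (chance level up to 0.065) followed by a retest with a 1.5-fold or larger significant decrease, p below 0.05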", "meaning of the calls": "active = confirmed: knock-down lowers infection; inactive = not picked or not confirmed", "note": "The deposit covers about 22,000 reagents; shown is a random part of those with a known target gene and a result. Over the whole deposit, 116 (0.52%) are marked active. 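Calls depend on retest data that are not deposited; infection was ranked per plate without normalising between plates; the unit of the infection score is not given.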 Raw values vary from plate to plate and are shown uncorrected. Unmarked entries are inactive. Reagents against one gene are numbered here. Not given: the amount of reagent, the time to read-out."}
{"gene": "Tbc1d15-17", "reagent no.": 1, "infection score, replicate 1": 4.33, "infection score, replicate 2": 4.53, "cell count, replicate 1": 5975, "cell count, replicate 2": 5826}
{"gene": "Tbc1d15-17", "reagent no.": 2, "infection score, replicate 1": 20.1, "infection score, replicate 2": 27.7, "cell count, replicate 1": 6219, "cell count, replicate 2": 5809}
{"gene": "prim", "reagent no.": 1, "cell count, replicate 1": 388, "cell count, replicate 2": 506}
{"gene": "pico", "reagent no.": 1, "infection score, replicate 1": 1.26, "infection score, replicate 2": 5.63, "cell count, replicate 1": 5795, "cell count, replicate 2": 5701}
{"gene": "CG15439", "reagent no.": 1, "infection score, replicate 1": 1.42, "infection score, replicate 2": 4.45, "cell count, replicate 1": 7898, "cell count, replicate 2": 6946}
{"gene": "CG15439", "reagent no.": 2, "infection score, replicate 1": 3.78, "infection score, replicate 2": 2.53, "cell count, replicate 1": 6607, "cell count, replicate 2": 6285}

3 entries already listed, ordered by “cell count, replicate 2”, lowest first.
{"gene": "prim", "reagent no.": 1, "cell count, replicate 1": 388, "cell count, replicate 2": 506}
{"gene": "Tbc1d15-17", "reagent no.": 2, "infection score, replicate 1": 20.1, "infection score, replicate 2": 27.7, "cell count, replicate 1": 6219, "cell count, replicate 2": 5809}
{"gene": "Tbc1d15-17", "reagent no.": 1, "infection score, replicate 1": 4.33, "infection score, replicate 2": 4.53, "cell count, replicate 1": 5975, "cell count, replicate 2": 5826}

Continued.
{"gene": "CG15370", "reagent no.": 1, "infection score, replicate 1": 1.56, "infection score, replicate 2": 5.18, "cell count, replicate 1": 6480, "cell count, replicate 2": 6311}
{"gene": "CG15370", "reagent no.": 2, "infection score, replicate 1": 12.9, "infection score, replicate 2": 4.54, "cell count, replicate 1": 6120, "cell count, replicate 2": 6341}
{"gene": "CR11023", "reagent no.": 1, "infection score, replicate 1": 11.2, "infection score, replicate 2": 7.6, "cell count, replicate 1": 6659, "cell count, replicate 2": 6935}
{"gene": "CR11023", "reagent no.": 2, "infection score, replicate 1": 16.6, "infection score, replicate 2": 18.6, "cell count, replicate 1": 5217, "cell count, replicate 2": 4794}
{"gene": "PH4alphaPV", "reagent no.": 1, "infection score, replicate 1": 1.2, "infection score, replicate 2": 2.27, "cell count, replicate 1": 6067, "cell count, replicate 2": 6507}
{"gene": "PH4alphaPV", "reagent no.": 2, "infection score, replicate 1": 23.5, "infection score, replicate 2": 27.7, "cell count, replicate 1": 4518, "cell count, replicate 2": 5409}
{"gene": "CG17266", "reagent no.": 1, "infection score, replicate 1": 18, "infection score, replicate 2": 3.16, "cell count, replicate 1": 6017, "cell count, replicate 2": 6902}
{"gene": "CG17266", "reagent no.": 2, "infection score, replicate 1": 1.4, "infection score, replicate 2": 11.9, "cell count, replicate 1": 6003, "cell count, replicate 2": 6189}
{"gene": "CG17266", "reagent no.": 3, "infection score, replicate 1": 4.57, "infection score, replicate 2": 2.47, "cell count, replicate 1": 5691, "cell count, replicate 2": 5590}
